Laboratory results as given in patent US20210252150A1.

Biological target: HA of A/duck/Alberta/60/1976 (H12N5) (influenza A virus (H12N5)) (UniProt P03446)
Experiment: ELISA

rFluA-20 heavy chain mutant C101A (antibody)
EC50: 0.09 µg/mL
